Experimental data from article PMC5887915.

Target: HLA-A*0201 (alpha-chain refolded with beta2m)
Assay: circular dichroism thermal melting

Tm (melting temperature of the peptide-HLA complex): 63 °C
Substance: ELA peptide (…), Melan-A 26-35 (A27L)
